The target in this assay is TBEV NS2B–NS3^pro (Tick-borne encephalitis virus, UniProt Q01299). The assay can be described thus: FRET-based inhibition assay of NS2B-NS3pro (384-well).

Turning to 5,5-dithio-bis-(2-nitrobenzoic acid), the IC50 (read-out: IC50, NS2B-NS3pro, 2.5 μM enzyme, 0.25 μM substrate, 25 °C, 3.5 h, β-ME omitted for DTNB) came out at 303 µM.

Regarding `CC(=O)N[C@@H](CC(C)C)C(=O)N[C@@H](CC(C)C)C(=O)N[C@H](C=O)CCCNC(=N)N`, under “FRET assay, confirmed by SDS-PAGE analysis”, the “Inhibition of NS2B-NS3pro (in words)” value is listed as “no inhibition observed”.

The term IC50 denotes the point on the concentration scale where inhibition reaches its midpoint.

(Values after PMC8270262 (Molecules, 2021).)
